Laboratory results from the supplement of paper PMC3578754.
Fold change is the IC50 on the isolate divided by the IC50 on a reference virus; 1 = unchanged, higher = more resistant. Changes are given against the subtype B consensus. No active / inactive call. The values were gathered from many studies (numbered anew) with different assays, which the source does not name. Most viruses are clinical isolates; some are laboratory strains or clones with known resistance changes. Isolates with mixed residues are left out; stretches that were not sequenced show no change. Round top values that many isolates share are read here as limits; other very high values and 0.1 may be limits too. The protease changes I3V and N37S, insertions and deletions cannot be read from the source.

Key:
Assay in all cases: fold change of IC50 against reference virus; higher = more resistant; Cell-culture drug susceptibility tests of virus bearing the protease of each isolate, gathered from many studies.
[1] = compound: CC(C)(C)NC(=O)[C@@H]1C[C@@H]2CCCC[C@@H]2CN1C[C@@H](O)[C@H](Cc1ccccc1)NC(=O)[C@H](CC(N)=O)NC(=O)c1ccc2ccccc2n1 [saquinavir]
[2] = compound: Cc1c(O)cccc1C(=O)N[C@@H](CSc1ccccc1)[C@H](O)CN1C[C@H]2CCCC[C@H]2C[C@H]1C(=O)NC(C)(C)C [nelfinavir]
[3] = compound: CC(C)c1nc(CN(C)C(=O)N[C@H](C(=O)N[C@@H](Cc2ccccc2)C[C@H](O)[C@H](Cc2ccccc2)NC(=O)OCc2cncs2)C(C)C)cs1 [ritonavir]
[4] = compound: Cc1cccc(C)c1OCC(=O)N[C@@H](Cc1ccccc1)[C@@H](O)C[C@H](Cc1ccccc1)NC(=O)[C@H](C(C)C)N1CCCNC1=O [lopinavir]
[5] = compound: CC(C)(C)NC(=O)[C@@H]1CN(Cc2cccnc2)CCN1C[C@@H](O)C[C@@H](Cc1ccccc1)C(=O)N[C@H]1c2ccccc2C[C@H]1O [indinavir]

Row | Test System | fold change of IC50 against reference virus [1] | fold change of IC50 against reference virus [2] | fold change of IC50 against reference virus [3] | fold change of IC50 against reference virus [4] | fold change of IC50 against reference virus [5]
1 | HIV-1 isolate 1439 (protease changes: L10F V32I E35D M36I M46L A71V V82A, study 8) | 1.5 | 7.4 | 12.1 | 5.2 | 10.2
2 | HIV-1 isolate 1336 (protease changes: I13V K14R I15V K20I E35D M36I R41K L63P H69K I72M L89M, study 114) | 0.7 | 0.6 | 0.8 | 0.8 | 0.6
3 | HIV-1 isolate 495 (protease changes: L10I K20R L23I E35D M36I M46I F53L I54V D60E L63P A71V I84V L90M I93L, study 145) | 306 | 56 | 187 | 28 | 9.4
4 | HIV-1 isolate 1136 (protease changes: L10F G16E V32I M46I I47A R57G H69Y I84V T91S, study 105) | 4 |  | 21 | 340 | 
5 | HIV-1 isolate 364 (protease changes: L10V L33F M46I I54M L63P A71I L90M, study 15) | 15 | 24 | 24 | 17 | 13
6 | HIV-1 isolate 1074 (protease changes: I13V K14R K20I E35D M36I R41K H69K V82I L89M, study 114) | 0.8 | 1.1 | 1.2 | 0.7 | 0.5
7 | HIV-1 isolate 720 (protease changes: T12N E35D L63Q I64V, study 15) | 0.3 | 0.4 | 0.3 | 0.3 | 0.4
8 | HIV-1 isolate 44 (protease changes: I13V K20I E35D M36I R41K H69K T74S L89M, study 114) | 1.5 |  | 1.6 | 1.3 | 1
9 | HIV-1 isolate 335 (protease changes: L10I E35D M36I R41K L63A C67D H69K L89M, study 114) | 0.6 | 0.6 | 0.8 | 0.6 | 0.5
10 | HIV-1 isolate 590 (protease changes: T12S I15V G16E L19I M36L L63T H69K L89M I93L, study 114) | 0.6 | 1.3 | 0.7 | 0.4 | 0.8
11 | HIV-1 isolate 319 (protease changes: I13V G17E K20I E35D M36I R41K C67M G68W H69K L89M, study 114) | 1 | 0.7 | 0.9 | 0.7 | 0.6
12 | HIV-1 isolate 748 (protease changes: L10I L23I M46L I54V R57K L63P A71V V82A I84V L90M Q92K, study 145) | 38 | 17 | 77 | 21 | 5
13 | HIV-1 isolate 668 (protease changes: L10I I13V G16A Q18H N37D M46I I54V Q61H I62V L63P A71L I72T L76V V77I V82A N88G L90M I93L, study 8) | 0.4 | 8.5 | 26.6 | 78.7 | 6.8
14 | HIV-1 isolate 1374 (protease changes: L10I K20R L33F E35D M36I R41K M46L I54V I62V L63P A71I V77I V82A I84T L90M I93L, study 88) |  |  | 160 | 48 | 
15 | HIV-1 isolate 911 (protease changes: T12P K14R E35D R41K I62V L63P G68E A71T V77I I93L, study 65) | 0.7 | 0.9 | 0.5 | 0.4 | 0.5
16 | HIV-1 isolate 216 (protease changes: V82A, study 62) |  |  | 12 | 4 | 
17 | HIV-1 isolate 905 (protease changes: T12S K14R I15V L19T M36V R41K L63P H69K L89M I93L, study 114) | 1.5 | 1.6 | 1.5 | 0.1 | 1.6
18 | HIV-1 isolate 1492 (protease changes: L10I I15V G16E K20R E35D M36I R41K I54V R57K Q61N I62V L63H I64M K70R L89M L90M Q92K, study 8) | 1.8 | 2.3 | 5 | 2.8 | 1.8
19 | HIV-1 isolate 395 (protease changes: T12N, study 109) | 0.2 | 0.4 | 0.3 | 0.3 | 0.3
20 | HIV-1 isolate 1475 (protease changes: L10F M46I I50V, study 30) | 1.3 | 2.9 | 5.2 | 19 | 1.6
21 | HIV-1 isolate 919 (protease changes: L10M I13V Q18H N37D M46I K55R Q61H L63P A71T I72T V77I N88S L90M I93L, study 8) | 3.4 | 54.7 | 4.5 | 0.7 | 15.7

Row | Test System | fold change of IC50 against reference virus [1] | fold change of IC50 against reference virus [2] | fold change of IC50 against reference virus [3] | fold change of IC50 against reference virus [4] | fold change of IC50 against reference virus [5]
22 | HIV-1 isolate 838 (protease changes: L63A, study 109) | 0.5 | 0.5 | 0.5 | 0.5 | 0.4
23 | HIV-1 isolate 370 (protease changes: L10I E35D I54V L63A A71V V82A I85V I93L, study 8) | 0.9 | 7.2 | 21.6 | 2.3 | 7.1
24 | HIV-1 isolate 721 (protease changes: L10S I13V K14R K20I A22T E35D M36I R41K L63P H69K V82I L89M, study 114) | 2.3 | 3.9 | 3.9 | 2.1 | 1.3
25 | HIV-1 isolate 167 (protease changes: L10I M46I Q58E Q61N L63P I64V G73T V82A L90M I93L, study 116) | 4 | 31 | 32 | 14 | 25
26 | HIV-1 isolate 1448 (protease changes: T12S K14R I15V L19I M36I R41K L63S H69K V82I L89M I93L, study 114) | 0.4 | 0.3 | 0.3 | 0.3 | 0.2
27 | HIV-1 isolate 179 (protease changes: T12S K43R L63P, study 7) | 0.4 | 0.6 | 0.5 | 0.5 | 0.5
28 | HIV-1 isolate 704 (protease changes: L10I I15V G16E K20R E35D M36I R41K I54A R57K Q61D A71V I72R V82A L89I L90M Q92K, study 109) | 62 |  | 197 | 97 | 143
29 | HIV-1 isolate 124 (protease changes: I62V L63P V77I I93L, study 15) |  | 3 | 1.6 | 1.1 | 1.6
30 | HIV-1 isolate 1529 (protease changes: L10F T12S I13V K20T V32I E35D M36I I47V I54L L63P I64V A71V G73S L90M, study 15) | 15 |  | 44 | 67 | 19
31 | HIV-1 isolate 1027 (protease changes: L10I K14R L33F E35D M36L N37D K43T G48V I54V I62V L63P A71I I72K V82A I84V L90M I93L, study 15) |  | 113 | 400 | 122 | 102
32 | HIV-1 isolate 344 (protease changes: L10F V32I M46I I47V R57G I84V T91S, study 105) | 2 |  | 17 | 46 | 
33 | HIV-1 isolate 593 (protease changes: T12S K43R M46I I54V Q61H L63P V82F, study 7) | 0.1 | 19.2 | 30.8 | 5.8 | 
34 | HIV-1 isolate 1417 (protease changes: R57G, study 105) | 1 |  | 1 | 1 | 
35 | HIV-1 isolate 100 (protease changes: L10I G48V I54V L63P A71V I72M V77I V82A L90M I93L, study 116) |  | 34 | 74 | 20 | 26
36 | HIV-1 isolate 637 (protease changes: L10F M36I R57G I84V T91S, study 105) | 3 |  | 5 | 12 | 
37 | HIV-1 isolate 384 (protease changes: V82F, study 62) |  |  | 52 | 3 | 
38 | HIV-1 isolate 797 (protease changes: V82T, study 62) |  |  | 30 | 3 | 
39 | HIV-1 isolate 562 (protease changes: I13V I15V L33F I54L I64V T74A V82S, study 62) |  |  | 16 | 10 | 
40 | HIV-1 isolate 595 (protease changes: L10I G48M I54V L63P A71I V77I V82A L90M, study 58) | 350 | 144 |  | 101 | 180
41 | HIV-1 isolate 1042 (protease changes: L10I M46I L63P A71V V77I I84V N88D L90M, study 58) | 91.4 | 48.6 |  | 22.3 | 29.4
42 | HIV-1 isolate 772 (protease changes: L10F M36I R57G I84V, study 105) | 2 |  | 2 | 4 | 
